Data as given in publication PMC3922157 (Journal of Antimicrobial Chemotherapy, 2013).

Key:
[1] = system: procyclic T. b. gambiense 386MR; assay: Drug resistance of procyclic 386MR relative to parental line; assay type: cell-based; conditions: procyclic 386MR vs STIB 386 (Figure S2)
[2] = system: procyclic T. b. brucei 247MR; assay: Drug resistance of procyclic 247MR relative to parental line; assay type: cell-based; conditions: procyclic 247MR vs STIB 247 (Figure S2)

SMILES: O=[As]c1ccccc1 (centres unmarked)
- Resistance relative to parental line [1]: Neither strain displayed resistance
- Resistance relative to parental line [2]: Neither strain displayed resistance
